Test results as given in patent US20030114445A1, “N3-substituted 6-anilinopyrimidines and methods to treat-Gram-positive bacterial and mycoplasmal infections” (priority 2001, published 2003).
Values after ≈ are worked out from the molar mass of the structure shown. Structures were worked out from names or drawings and are uncertain.

The chains behind the UniProt entries cited, without tags or fusion partners.
UniProt P13267, whole entry: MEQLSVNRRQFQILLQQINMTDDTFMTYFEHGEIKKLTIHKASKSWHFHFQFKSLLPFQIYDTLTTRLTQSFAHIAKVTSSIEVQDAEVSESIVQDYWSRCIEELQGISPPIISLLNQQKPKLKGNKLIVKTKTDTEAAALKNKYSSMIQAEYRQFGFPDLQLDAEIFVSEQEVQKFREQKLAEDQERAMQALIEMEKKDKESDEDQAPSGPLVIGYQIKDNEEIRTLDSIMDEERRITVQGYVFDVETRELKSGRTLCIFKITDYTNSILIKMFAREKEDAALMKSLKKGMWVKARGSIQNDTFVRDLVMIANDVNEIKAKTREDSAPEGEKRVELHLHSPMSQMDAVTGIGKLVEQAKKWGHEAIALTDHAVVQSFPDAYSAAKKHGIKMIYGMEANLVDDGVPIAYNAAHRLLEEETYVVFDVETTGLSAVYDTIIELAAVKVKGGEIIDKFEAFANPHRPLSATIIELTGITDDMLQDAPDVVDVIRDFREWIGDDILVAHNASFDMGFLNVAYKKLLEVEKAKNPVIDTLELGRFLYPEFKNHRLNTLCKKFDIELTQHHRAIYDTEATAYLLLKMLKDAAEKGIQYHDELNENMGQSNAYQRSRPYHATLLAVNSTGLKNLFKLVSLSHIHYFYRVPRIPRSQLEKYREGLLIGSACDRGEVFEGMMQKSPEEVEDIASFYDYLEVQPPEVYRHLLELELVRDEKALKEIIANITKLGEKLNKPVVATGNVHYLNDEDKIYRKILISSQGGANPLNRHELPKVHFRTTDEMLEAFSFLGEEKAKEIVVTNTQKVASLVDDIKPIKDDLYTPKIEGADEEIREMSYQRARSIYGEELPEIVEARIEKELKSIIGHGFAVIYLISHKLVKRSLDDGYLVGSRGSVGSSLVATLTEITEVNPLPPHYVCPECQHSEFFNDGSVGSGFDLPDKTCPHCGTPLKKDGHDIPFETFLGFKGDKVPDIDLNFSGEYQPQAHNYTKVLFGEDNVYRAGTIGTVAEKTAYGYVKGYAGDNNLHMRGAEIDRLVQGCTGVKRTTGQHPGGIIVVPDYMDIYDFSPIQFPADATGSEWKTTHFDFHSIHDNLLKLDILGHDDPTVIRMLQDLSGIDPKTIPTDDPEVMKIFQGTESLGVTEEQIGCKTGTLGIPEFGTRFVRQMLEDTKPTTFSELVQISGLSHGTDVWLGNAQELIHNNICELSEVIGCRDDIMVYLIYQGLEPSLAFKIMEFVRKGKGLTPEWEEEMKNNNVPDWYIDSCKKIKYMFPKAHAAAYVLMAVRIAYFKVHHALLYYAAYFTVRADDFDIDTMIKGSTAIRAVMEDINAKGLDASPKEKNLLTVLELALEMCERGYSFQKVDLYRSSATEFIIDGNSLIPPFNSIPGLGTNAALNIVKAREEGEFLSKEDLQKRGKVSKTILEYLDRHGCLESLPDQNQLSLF

Assays:
B.subtilis pol IIIC = B.subtilis pol IIIC (Bacillus subtilis, UniProt P13267); conditions: read-out: K1 B.subtilis pol IIIC; truncated assay, apparent inhibitor constant
E. fecium = experiment: Inhibition of bacterial growth on agar plates (MIC); assay type: cell-based; conditions: 37° C., 24 hours
Protocol: (§1) Each compound is assayed against a panel of Bacillus, Enterococcus and Staphylococcus, and a Gram-negative bacterium Escherichia coli as negative control, grown in appropriate plate media solidified with 1.3% agar-agar. Stock solutions of the compounds in dimethylsulfoxide or water, depending on solubility, are added to sterile medium at a temperature of 60° C. This stock mixture is diluted with drug-free medium and used to make a series of Petri plates containing inhibitor in a series of two-fold serial dilutions, from about 80 to 0.625 μg/mL. One tenth mL of diluted bacteria containing 500-1000 colony-forming units (CFU) are plated and spread, and the plates incubated at 37° C. for 24 hours. MIC (minimum inhibitory concentration) is equivalent to the lowest concentration at which growth, i.e. colony formation, is not observed.

E. fecalis = experiment: as above; assay type: cell-based; conditions: 37° C., 24 hours
Protocol: as §1

S.aureus (Smith) = experiment: as above; assay type: cell-based; conditions: 37° C., 24 hours
Protocol: as §1

Q: Which results are given for `CCc1cc(Nc2cc(=O)n(CCCCN3C[C@@H](C)O[C@@H](C)C3)c(=O)[nH]2)ccc1C` (relative stereo)?
A: Ki (B.subtilis pol IIIC): 36 nM; MIC E. fecium (E. fecium): 20 µg/mL (≈ 48.2 µM); MIC E. fecalis (E. fecalis): >20 µg/mL; MIC S.aureus (Smith) (S.aureus (Smith)): >20 µg/mL
